The values that follow come from paper doi:10.1101/497123.

By Kd is commonly meant the constant that tells how readily two partners part at equilibrium. Broadly, the koff is a measure of how fast the partners let go of each other.

Assay [1] addresses full length H3 HA trimer (influenza A virus, subtype H3 (strain not stated)). Kind of assay: BLI. (In general: Biolayer interferometry detects binding as a change in optical thickness at a sensor tip.)
Assay [2] addresses full length H7 HA trimer (influenza A virus, subtype H7 (strain not stated)). Kind of assay: BLI.

For MEDI8852 Fab, the equilibrium dissociation constant (Kd) in assay [1] and in assay [2] was 1.2 nM in each case. The koff in assay [1] came to 0.00015 s⁻¹; in assay [2] it was 0.00013 s⁻¹.
